Pooled drug test results. Numbers come from NIAID ChemDB, via PubChem.

All rows: whole-cell or culture tests; species: Cryptococcus neoformans; measure: MIC

Blank or dashed fields: not listed here. Rows are shuffled and stem from different studies.

smiles | strain | method | value
Oc1ccccc1N=Cc1ccc2c(c1)OCO2 | F-10 | broth dilution | 11.3 µg/mL
N#CC1=C(N)OC2=C(CSc3ccc(Cl)cc32)C1c1ccc2c(c1)OCO2 | 25 | - | 6 µg/mL
Oc1ccccc1N=Cc1ccc(F)cc1 | VM-MCMMPI | broth dilution | 8 µg/mL
Nc1ccccc1Cc1nc(CN2CCc3sccc3C2)n[nH]1 | NCIM576 | agar | 75 µg/mL
CCCCCCCCCCCCCC(=O)NC(CCCN)C(N)=O | ATCC 2344 | broth dilution | >100 µg/mL
OC(Cn1cncn1)(Cn1cncn1)c1ccc(F)cc1F | NCIM576 | agar | 5 µg/mL
Oc1ccccc1C=Nc1ccccc1O | ATCC 24067 | broth dilution | 5.7 µg/mL
c1ccc(Cc2nc(CN3CCc4sccc4C3)n[nH]2)cc1 | NCIM576 | agar | >200 µg/mL
COc1nc2c(c(-c3ccc4ccccc4c3)c1C#N)CSc1ccc(Cl)cc1-2 | Farwania | - | 25 µg/mL
Oc1ccccc1N=Cc1cccc(O)c1O | ATCC 62066 | broth dilution | 2 µg/mL
C[C@@H](n1ncn(-c2ccc(OCC(F)(F)C(F)F)cc2)c1=O)[C@](O)(Cn1cncn1)c1ccc(F)cc1F | DUMC 123.96 | - | 0.0625 µg/mL
OCCCCCCCCN=C=S | CNH99 | visual reading | <1 µg/mL
CC(=O)N1CCC(n2cc(CN3CCc4sccc4C3)nn2)CC1 | NCIM576 | agar | >200 µg/mL
Oc1ccc(O)c(C=Nc2ccccc2O)c1 | GM | broth dilution | 8 µg/mL
CC(=O)N1CCC(n2cc(-c3nc(-c4ccc(C)cc4)n[nH]3)nn2)CC1 | - | agar | 140 µg/mL
COc1ccc(-c2c(C#N)c(OC)nc3c2CSc2ccccc2-3)cc1 | 25 | - | 12.5 µg/mL
CCCCCCCCCCCC(=O)NC(CCCN)C(=O)NC(CCCN)C(=O)NC(CCCN)C(N)=O | ATCC 2344 | broth dilution | 25 µg/mL
CCC(C)CC(C)CCCCCCCCC(=O)N[C@H]1C[C@@H](O)[C@H](NCCN)NC(=O)[C@@H]2[C@@H](O)CCN2C(=O)[C@H]([C@H](O)CCN)NC(=O)[C@H]([C@H](O)[C@@H](O)c2ccc(O)cc2)NC(=O)[C@@H]2C[C@@H](O)CN2C(=O)[C@H]([C@@H](C)O)NC1=O | B 32287 | broth dilution | 16 µg/mL
COc1ccc(-c2c(C#N)c(OC)nc3c2CSc2ccc(Cl)cc2-3)cc1OC | 93/V | - | 25 µg/mL
CCC(=O)N1CCC(n2cc(CN3CCc4sccc4C3)nn2)CC1 | NCIM576 | agar | >200 µg/mL
CCCCCCCCCC(=O)NC(CCCN)C(=O)NC(CCCN)C(=O)NC(CCCN)C(=O)NC(CCCN)C(=O)NC(CCCN)C(N)=O | ATCC 2344 | broth dilution | >100 µg/mL
COc1ccc(-c2c(C#N)c(OC)nc3c2CSc2ccc(OC)cc2-3)cc1 | Farwania | - | 12.5 µg/mL
CCC(=O)N1CCC(n2cc(-c3nc(-c4ccc(C)cc4)n[nH]3)nn2)CC1 | - | agar | >200 µg/mL
Clc1ccccc1-c1n[nH]c(CN2CCc3sccc3C2)n1 | NCIM576 | agar | 125 µg/mL
Clc1ccc(Cl)c(Oc2ccc(NC(=NCCCNc3ccnc4cc(Cl)ccc34)Nc3ccccc3)cc2)c1 | - | broth dilution / absorbance | >50 µg/mL
CCCCOc1c(OC)ccc2c(Cc3ccc(C(C)C)cc3)c3[n+](cc12)CCc1cc2c(cc1-3)OCO2 | H99 | visual reading | 4 µg/mL
Clc1cccc(-c2n[nH]c(CN3CCc4sccc4C3)n2)c1 | NCIM576 | agar | 125 µg/mL
C[n+]1c2ccccc2cc2[nH]c3c(Br)cccc3c21.[I-] | ATCC 90113 | resazurin | 20 µg/mL
CS(=O)(=O)N1CCC(n2cc(-c3nc(-c4ccc(Cl)cc4)n[nH]3)nn2)CC1 | - | agar | >200 µg/mL
Cn1nc(Cc2ccc(Cl)cc2)c2ccccc2c1=O | ATCC 32264 | broth dilution | 7.8 µg/mL
Oc1ccccc1N=Cc1ccc(O)c(O)c1O | VM-MCMMPI | broth dilution | 11.3 µg/mL
CCCCCCCCCCCC(=O)NC(CCCN)C(N)=O | ATCC 2344 | broth dilution | >100 µg/mL
O=[N+]([O-])c1ccc(C=Nc2ccccc2O)cc1 | GM | broth dilution | 11.6 µg/mL
CCN1CCC(n2cc(-c3nc(-c4ccccc4)n[nH]3)nn2)CC1 | - | agar | 120 µg/mL
COc1nc2c(c(-c3ccccc3)c1C#N)CSc1ccccc1-2 | 25 | - | 12.5 µg/mL
C[C@H]1[C@H](O)[C@@H](C)/C=C/C=C/C=C/C=C/C=C/C=C/C=C/[C@H](O[C@@H]2O[C@H](C)[C@@H](O)[C@H](N)[C@@H]2O)C[C@@H]2O[C@](O)(C[C@@H](O)C[C@@H](O)CC[C@H](O)[C@@H](O)C[C@@H](O)CC(=O)O[C@H]1C)C[C@H](O)[C@H]2C(=O)O | MTCC 4406 | absorbance | 0.25 µg/mL
CS(=O)(=O)N1CCC(n2cc(-c3nc(-c4ccc([N+](=O)[O-])cc4)n[nH]3)nn2)CC1 | - | agar | >200 µg/mL
Oc1cccc(C=Nc2ccccc2O)c1 | ATCC 28957 | broth dilution | 2.8 µg/mL

5 of the rows above, restated:

smiles | strain | method | value
CCC(=O)N1CCC(n2cc(CN3CCc4sccc4C3)nn2)CC1 | NCIM576 | agar | >200 µg/mL
C[C@H]1[C@H](O)[C@@H](C)/C=C/C=C/C=C/C=C/C=C/C=C/C=C/[C@H](O[C@@H]2O[C@H](C)[C@@H](O)[C@H](N)[C@@H]2O)C[C@@H]2O[C@](O)(C[C@@H](O)C[C@@H](O)CC[C@H](O)[C@@H](O)C[C@@H](O)CC(=O)O[C@H]1C)C[C@H](O)[C@H]2C(=O)O | MTCC 4406 | absorbance | 0.25 µg/mL
CCCCOc1c(OC)ccc2c(Cc3ccc(C(C)C)cc3)c3[n+](cc12)CCc1cc2c(cc1-3)OCO2 | H99 | visual reading | 4 µg/mL
c1ccc(Cc2nc(CN3CCc4sccc4C3)n[nH]2)cc1 | NCIM576 | agar | >200 µg/mL
CCC(C)CC(C)CCCCCCCCC(=O)N[C@H]1C[C@@H](O)[C@H](NCCN)NC(=O)[C@@H]2[C@@H](O)CCN2C(=O)[C@H]([C@H](O)CCN)NC(=O)[C@H]([C@H](O)[C@@H](O)c2ccc(O)cc2)NC(=O)[C@@H]2C[C@@H](O)CN2C(=O)[C@H]([C@@H](C)O)NC1=O | B 32287 | broth dilution | 16 µg/mL